45 molecules from PubChem BioAssay AID485350 (ICCB-Longwood Screening Facility, Harvard Medical School, 2010) can be followed below.

This is a selection; strong and weak results do not stand in their true shares. Active and inactive are the calls of the source. Rule as the data show it: active = inhibition above about 25% (passing the limit was not always enough); inactive = the rest.

This assay relates to BasE (2,3-dihydroxybenzoate-AMP ligase), Acinetobacter baumannii ATCC 17978. Nature of the assay: BasE siderophore enzyme inhibitors, primary screen, biochemical, Acinetobacter baumannii ATCC 17978, fluorescence polarization (AID 485350).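 Also: 0% = negative plate control signal and 100% = positive plate control signal.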 As to conditions: purified BasE, fluorescence polarization binding displacement; active compounds read high; concentration not given here. In general terms: Polarisation of emitted light reports the rotation of a fluorescent probe.
By inhibition is commonly meant the change of the read-out against control, counted positive when it falls. With `OCCSCCO`, the inhibition was inactive: 1.13%.

`CCc1ccc(OP(C)(=O)Nc2cccnc2)cc1` (stereo not given): the inhibition was active: 55.8%. `CP(=O)(Nc1ccc(Cl)cc1)Oc1ccc(F)cc1` (stereo not given): the inhibition is inactive: -0.77%. On to `CN(C(=O)Cc1ccc(Cl)c(Cl)c1)[C@H]1CCCC[C@@H]1N1CCCC1`, for which the inhibition is inactive: -2.11%. In the case of `CCOP(=Nc1nc2ccccc2n2nnnc12)(OCC)OCC`, the inhibition was inactive: 1.63%. Consider `O=C(COC(=O)C(O)(c1ccccc1)c1ccccc1)N1CCCCC1`, for which the inhibition was inactive: 3.48%. Then `CCOP(OCC)N1CCOCC1`, with inactive: -0.06%; and `CP(=O)(Nc1ccccn1)Oc1ccccc1` (stereo not given), with inactive: 0.2%; and `O=P1(Nc2nncs2)C=C(c2ccccc2)SC(c2ccccc2)=C1`, with inactive: -0.43%. Consider `Cc1cc(NC2=NC3C(C(=O)N(C)C(=O)N3C)N2C)n(-c2ccccc2)n1` (stereo not given), for which the inhibition is inactive: 1.13%. With `O=C(OCCN1CCN(CCOCc2ccccc2)CC1)C(O)(c1ccccc1)c1ccccc1`, the inhibition is inactive: -0.99%.

For the molecule `O=C(OCC1CN(Cc2ccccc2)CCO1)C(O)(c1ccccc1)c1ccccc1` (stereo not given), the inhibition is inactive: -0.73%.

Regarding `CC1CCC(C(C)C)C(OP(=O)(Nc2nccs2)c2ccccc2)C1` (stereo not given), the inhibition is inactive: 0.55%. In the case of `COC(=O)c1cc2c(s1)N=C(c1ccccc1)N(C)P2(=O)N1CCOCC1` (stereo not given), the inhibition is inactive: -0.88%.

On to `COc1cc2c(cc1NP(C)(=O)Oc1ccccc1)oc1ccccc12` (stereo not given), for which the inhibition is inactive: 0.95%. Then `Nc1nonc1OCc1nonc1COc1nonc1N`, with inactive: 3.62%. As for `C/C1=C2N=C(/C=C3N=C(/C(C)=C4\[N-][C@@](C)([C@@H]5N=C1[C@](C)(CCC(=O)NC[C@@H](C)OP(=O)([O-])O[C@H]1[C@@H](O)[C@@H](n6cnc7cc(C)c(C)cc76)O[C@@H]1CO)[C@H]5CC(N)=O)[C@@](C)(CC(N)=O)[C@@H]4CCC(N)=O)[C@@](C)(CC(N)=O)[C@@H]\3CCC(N)=O)C(C)(C)[C@@H]/2CCC(N)=O.[C-]#N.[Co+3]`, the inhibition is inactive: -3.06%. For `O=P(Nc1nccs1)(c1ccccc1)c1ccccc1`, the inhibition was inactive: -0.13%.

In the case of `Cc1ccccc1NP(C)(=O)Nc1ccccc1C`, the inhibition was inactive: 1.13%.

In the case of `Nc1nonc1-c1no[n+]([O-])c1-c1nonc1N`, the inhibition was inactive: -1.81%. To `CP(=O)(N1CCOCC1)N1CCOCC1` belongs inactive: 2.17%; to `Cc1nn(CCC#N)c2c1P(=O)(Nc1ccccc1Cl)N(C)C(c1ccc(F)cc1)=N2` (stereo not given), inactive: 2.27%; to `Cc1ccc(C(=O)OC2CN3CCC2CC3)cc1` (stereo not given), inactive: -1.69%. `Cc1nn(-c2ccccc2)c2c1P(=O)(N1CCOCC1)N(C)C(c1ccccc1)=N2` (stereo not given): the inhibition is inactive: -2.81%. Then `CCSP(=O)(c1ccccc1)c1ccccc1`, with inactive: 1.77%. With `Cc1cc(C)cc(OP(C)(=O)Nc2ccc(OC(C)C)cc2)c1` (stereo not given), the inhibition is inactive: -2.13%.

With `NC(=O)COC(=O)C1(O)c2ccccc2-c2ccccc21`, the inhibition was inactive: 2.53%. Consider `CCOP1(=S)c2c(C)nn(CCC#N)c2N=C(c2ccc(F)cc2)N1C` (stereo not given), for which the inhibition was inactive: -0.93%. Take `O=P1(Nc2nc3ccc(Cl)cc3s2)COc2ccccc2OC1`: the inhibition is inactive: -0.4%. For `NC(=O)Nc1ccc([As](=O)(O)O)cc1`, the inhibition is inactive: 0.58%.

In the case of `Cc1cccc(OCC(=O)OC2CN3CCC2CC3)c1` (stereo not given), the inhibition is inactive: -0.57%. For the molecule `O=C(OC1CN2CCC1CC2)c1ccc(Cl)cc1` (stereo not given), the inhibition is inactive: -0.77%.

`O=C(OC1CN2CCC1CC2)C12CC3CC(CC(C3)C1)C2` (stereo not given): the inhibition is inactive: 0.25%. To `O=P1(Nc2nccs2)CC=CC1` belongs inactive: -0.72%; to `CC1=Nc2ccc(C(F)(F)F)cc2C1(C)C`, inactive: 5.37%; to `COP1(=S)N=C2c3ccccc3CN2c2cc(N(C)C)ccc21` (stereo not given), inactive: -1.59%. Then `Nc1nonc1OCCOc1nonc1N`, with inactive: 0.5%; and `Cc1cc(C)cc(OP(C)(=O)NCc2ccccc2)c1` (stereo not given), with inactive: 5.92%; and `CCN1C(=O)N(c2ccccc2)P(=S)(OC)c2cc3c(cc21)OCCO3` (stereo not given), with inactive: 1.48%. Then `COc1ccccc1OP(C)(=O)Nc1ccccc1` (stereo not given), with inactive: 0.09%.

With `CP(=O)(Nc1ccc(Cl)cc1)Oc1ccccc1` (stereo not given), the inhibition was inactive: -2.78%.

As to `CP(=O)(NC(=O)Nc1ccccc1)Oc1ccccc1` (stereo not given), the inhibition is inactive: 1.72%.

Take `COP1(=S)c2c(C)nn(-c3ccccc3)c2N=C(c2ccccc2)N1C1CC1` (stereo not given): the inhibition was inactive: -1.55%. For `CCOC(=O)c1ccc(NP(C)(=O)Oc2ccc(OC)cc2)cc1` (stereo not given), the inhibition was inactive: -2.04%. Take `Cc1cccc(NP(C)(=O)Oc2ccccc2)c1` (stereo not given): the inhibition was inactive: 2.42%.
